Pooled drug test results. Numbers come from NIAID ChemDB, via PubChem.

All rows: host cell toxicity; cells: MT-4; read-out: CC50

Lines come from different laboratories, so protocols vary. CCn is the concentration with n% toxicity to the cells.

structure	value
O=[N+]([O-])c1ccccc1CCNC(=S)Nc1nccs1	123 µM
CC(C)CCC[C@@H](C)[C@H]1CC[C@H]2[C@@H]3CC[C@H]4C[C@@H](NC(=O)CC=C(c5cc(Cl)c(O)c(C(=O)O)c5)c5cc(Cl)c(O)c(C(=O)O)c5)CC[C@]4(C)[C@H]3CC[C@]12C	>60 µM
CN(C)CN1C(=O)/C(=N\n2c(-c3ccncc3)n[nH]c2=S)c2ccccc21	10.3 µM
COc1ccc(CCNC(=S)Nc2nccs2)cc1	68 µM
CCc1cc(CCc2nc3c(Cl)ccc(Cl)c3o2)c(=O)[nH]c1C	>0.06 µM
CCOCn1c(Cc2ccc3ccccc3c2)c(CC)c(=O)[nH]c1=O	82.2 µM
O=C(O)c1cccc(Cc2cccc(C(=O)O)c2O)c1O	38 µg/mL
COc1ccc(-c2c3c(n([C@@H]4O[C@H](COC(C)=O)[C@@H](OC(C)=O)[C@H](OC(C)=O)[C@@H]4OC(C)=O)c(=S)c2C#N)-c2ccccc2C3)cc1	8.91 µM
O=C1/C(=N\n2c(-c3ccncc3)n[nH]c2=S)c2cc(Cl)ccc2N1CN1CCCCC1	10.8 µM
CCc1c(-c2coc(CC/C(C)=C/c3ccccc3)n2)oc(OC)c(C)c1=O	66 µM
S=C(NCCc1cccnc1)Nc1nccs1	83 µM
CCc1cc(CCc2nc3ccccc3o2)c(=O)[nH]c1C	>0.06 µM
O=C(O)c1csc(NC(=S)NCCc2ccccc2)n1	>325 µM
COc1c(Cl)cc(C(=CCC(=O)N[C@@H]2CC[C@@]3(C)[C@@H](CC[C@@H]4[C@@H]3CC[C@]3(C)[C@@H]([C@H](C)CCCC(C)C)CC[C@@H]43)C2)c2cc(Cl)c(OC)c(C(=O)O)c2)cc1C(=O)O	6 µM
CCCc1c(Cc2cccc3ccccc23)n(COCc2ccccc2)c(=O)[nH]c1=O	30.71 µM
Cc1ncc(CO)c(CO)c1O	3000 µM
CCc1c(Cc2ccc3ccccc3c2)n(COCCO)c(=O)[nH]c1=O	182 µM
S=C(NCCc1ccccc1)Nc1ccn[nH]1	122 µM
Cc1ncc(COP(=O)(O)O)c(C=O)c1O	1250 µM
S=C(NCc1ccccc1)Nc1nccs1	120 µM
CCCc1c(OC#CC2CC2)c2cc(Cl)ccc2[nH]c1=O	28.8 µM
O=C(Nc1ccc(S(=O)(=O)Nc2cccc(Cl)c2F)cc1)c1cc(O)c(O)c(O)c1	>25 µM
CCCc1c(Cc2cccc3ccccc23)n(COCC)c(=O)[nH]c1=O	39.8 µM
CCCC(C(=O)O)c1c(C)nc2ccc(Cl)cc2c1-c1ccccc1	59.8 µM
Cc1c(Cc2cccc3ccccc23)n(COCc2ccccc2)c(=O)[nH]c1=O	32.9 µM
O=C1c2c(O)cc(O)cc2O[C@]12c1c(cc(O)c3c1O[C@H](c1ccc(O)cc1)CC3)O[C@H]2c1ccc(O)cc1	38 µg/mL
CCCc1csc(NC(=S)NCCc2ccccc2)n1	>330 µM
O=C1Nc2ccc(Br)cc2/C1=N/n1c(-c2ccncc2)n[nH]c1=S	11.2 µM
[C-]#[N+]C[C@H]1O[C@@H](n2cc(C)c(=O)[nH]c2=O)C[C@@H]1O	>200 µM
CC(C)c1csc(NC(=S)NCCc2ccccc2)n1	>330 µM
O=C(/C=C/c1ccc(O)c(O)c1)Nc1ccc(S(=O)(=O)Nc2ccc(F)c(F)c2)cc1	22 µM
CCCc1c(SC2CCCC2)c2cc(F)ccc2[nH]c1=O	30 µM
CC(=O)Oc1cc(C(=O)Nc2ccc(S(=O)(=O)Nc3ccccc3Br)cc2)cc(OC(C)=O)c1OC(C)=O	>25 µM
Nc1c(S(=O)(=O)O)cc2cc(S(=O)(=O)O)cc(O)c2c1O	46 µM
CCC(C)Sc1nc(Cc2cccc3ccccc23)cc(=O)[nH]1	>200 µM
CC(=O)Nc1cc(S(=O)(=O)O)c2cccc(S(=O)(=O)O)c2c1	414 µM
CCC(C)C#COc1c(C(C)C)c(=O)[nH]c2ccc(F)cc12	66.7 µM
N#Cc1cc(Cl)cc(Oc2cc(OCc3[nH]nc4cnccc34)ccc2Cl)c1	>8.3 µM
CCC(C)Sc1nc(Cc2cccc3ccccc23)c(CN2CCCCC2)c(=O)[nH]1	26 µM
CN(C)CN1C(=O)/C(=N\n2c(-c3ccncc3)n[nH]c2=S)c2cc(Br)ccc21	11.3 µM
O=C(O)C1=CC(=C(c2ccc(O)c(C(=O)O)c2)c2ccc(O)c(C(=O)O)c2)C=C(Cc2ccc(O)c(C(=O)O)c2)C1=O	49 µg/mL
CCN1C[C@H](C)N2C(=C(O)C3C(=O)N4Cc5ccc(F)cc5OCCCS(=O)(=O)N(C)C(=N4)C32)C1=O	3.3 µM
Nc1nc(N)c2ncn([C@H]3C[C@H](F)[C@@H](CO)O3)c2n1	360 µM
CC(C)CCC[C@@H](C)[C@H]1CC[C@H]2[C@@H]3CC[C@H]4C[C@@H](CCC=C(c5cc(Cl)c(O)c(C(=O)O)c5)c5cc(Cl)c(O)c(C(=O)O)c5)CC[C@]4(C)[C@H]3CC[C@]12C	>125 µM
CCC(C)Sc1nc(Cc2ccccc2)c(C)c(=O)[nH]1	86 µM
CCN1C[C@H](C)N2C(=C(O)C3C(=O)N4Cc5ccc(F)cc5C(=O)NCCCCCCN(C)C(=N4)C32)C1=O	2 µM
CC1(C)[C@@H](CCO)C[C@H]1n1nnc2c(=O)[nH]cnc21	112 µg/mL
CCNC(=NCCCN(C)C)N[C@@H]1[C@H](O)[C@@H](O[C@H]2/C=C/C=C/C=C/C=C/C=C/C=C/C=C/[C@H](C)[C@@H](O)[C@@H](C)[C@H](C)OC(=O)CC(O)CC(O)CC(O)CCC(O)C(O)C[C@]3(O)CC(O)C(C(=O)O)C(C2)O3)O[C@H](C)[C@@H]1O	>100 µg/mL
O=C(CCCCCCCCCCC(=O)Nc1cc(S(=O)(=O)O)cc2cc(S(=O)(=O)O)cc(O)c12)Nc1cc(S(=O)(=O)O)cc2cc(S(=O)(=O)O)cc(O)c12	465 µM
O=C(c1c(O)cc(O)cc1O)c1c(-c2ccc(O)cc2)oc2cc(O)c3c(c12)O[C@H](c1ccc(O)cc1)CC3	61 µg/mL
O=C1/C(=N\n2c(-c3ccncc3)n[nH]c2=S)c2ccccc2N1CN1CCOCC1	13.8 µM
CC1(C)[C@@H](CCO)C[C@H]1n1nnc2c(=O)[nH]c(N)nc21	≥250 µg/mL
Fc1cccc(CCNC(=S)Nc2nccs2)c1	78 µM
[C-]#[N+]C[C@H]1O[C@@H](n2ccc(=O)[nH]c2=O)C[C@@H]1N=[N+]=[N-]	>40 µM
O=C1/C(=N\n2c(-c3ccncc3)n[nH]c2=S)c2ccccc2N1CN1CCCCC1	10.1 µM
CC1(C)[C@@H](CCO)C[C@H]1n1nnc2c(N)nc(N)nc21	180 µg/mL
NC(=O)CC[C@H](NC(=O)COc1ccccc1NC(=O)[C@@H](N)Cc1ccc(O)cc1)C(=O)N[C@@H](Cc1c[nH]c2ccccc12)C(=O)N[C@@H](CC(=O)O)C(=O)N[C@@H](Cc1ccccc1)C(=O)NCC(=O)O	>1000 µg/mL
O=C(O)c1cc(Cc2cc(C(c3ccc(O)c(C(=O)O)c3)c3ccc(O)c(C(=O)O)c3)cc(C(=O)O)c2O)ccc1O	74 µg/mL